Pooled drug test results. Numbers come from NIAID ChemDB, via PubChem.

Shared fields: growth or infection tests; agent: HIV-1; method: MTT; measure: EC50

Conditions beyond the fields shown may differ between rows. ECn is the concentration giving n% inhibition of infection, replication or growth. Blank or dashed fields: not listed here.

compound,mutations,cells,strain or isolate,value
Cc1cc(C)c(Nc2ccc([N+](=O)[O-])c(NC3CCN(Cc4ccc(S(C)(=O)=O)cc4)CC3)n2)c(C)c1,Resistant strain (K103N + Y181C),MT-4,IIIB,>21 µM
Cc1cc(C#Cc2ccc(C(F)(F)F)cc2)cc(C)c1Oc1ccnc(Nc2ccc(C#N)cc2)n1,Y188L,MT-4,IIIB,>7.353 µM
C#Cc1ccc(Nc2nccc(Oc3c(C)cc(-c4cn(CC(=O)Nc5ccc(S(C)(=O)=O)cc5)nn4)cc3C)n2)cc1,E138K,MT-4,IIIB,1.23 µM
Cc1cc(C)c(Oc2ccc(N)c(NC3CCN(Cc4ccc(S(C)(=O)=O)cc4)CC3)n2)c(C)c1,-,MT-4,IIIB,0.116 µg/mL
Cc1cc(C#Cc2ccccc2)cc(C)c1Oc1ccnc(Nc2ccc(C#N)cc2)n1,Y181C,MT-4,IIIB,0.574 µM
Cc1cn([C@H]2C[C@H](N=[N+]=[N-])[C@@H](CO)O2)c(=O)[nH]c1=O,-,MT-4,T20R/C34R (subtype B),0.0005 µg/mL
Nc1ccn([C@H]2CC[C@@H](CO)O2)c(=O)n1,-,MT-4,ROD,0.123 µg/mL
c1cc(CN2CCCNCCNCCCNCC2)ccc1CN1CCCNCCNCCCNCC1,-,MT-4,K103N (subtype B),0.001 µg/mL
Cc1cc(C#Cc2cccc(N)c2)cc(C)c1Oc1ccnc(NC2CCN(c3cccc(C(N)=O)c3)CC2)n1,Y181C,MT-4,IIIB,0.124 µM
C#Cc1ccc(Nc2nccc(Oc3c(C)cc(-c4cn(Cc5cccc(C(=O)OC)c5)nn4)cc3C)n2)cc1,K103N,MT-4,IIIB,0.36 µM
Cc1cc(C)c(Oc2ccc([N+](=O)[O-])c(NC3CCN(Cc4ccc(C(N)=O)cc4)CC3)n2)c(C)c1,-,MT-4,IIIB,0.012 µg/mL
Cc1cc(C#Cc2cccc(N)c2)cc(C)c1Oc1ccnc(NC2CCN(Cc3cccc(C(N)=O)c3)CC2)n1,K103N,MT-4,IIIB,0.143 µM
C=C1[C@H](CO)[C@@H](O)C[C@@H]1n1cnc2c(=O)[nH]c(N)nc21,Y188L,MT-4,IIIB,0.017 µM
Cc1cc(C#CC2CC2)cc(C)c1Oc1ccnc(Nc2ccc(C#N)cc2)n1,Y181C,MT-4,IIIB,0.09 µM
C#Cc1ccc(Nc2nccc(Oc3c(C)cc(-c4cn(-c5cccc(C(=O)OC)c5)nn4)cc3C)n2)cc1,-,MT-4,RES056,45.24 µM
Cc1cc(/C=C/c2ccccc2)cc(C)c1Oc1ccnc(Nc2ccc(C#N)cc2)n1,K103N,MT-4,IIIB,0.059 µM
Cc1cc(C)c(Nc2ccc([N+](=O)[O-])c(NC3CCN(Cc4ccncc4)CC3)n2)c(C)c1,-,MT-4,IIIB,0.01 µg/mL
CCCN(C)C(=O)Oc1nsnc1-c1c(Cl)ccc(N)c1Cl,RT-Y181C,MAGI,IIIB,1.6 µM

The last 2 rows once more:

| compound | mutations | cells | strain or isolate | value |
|---|---|---|---|---|
| Cc1cc(C)c(Nc2ccc([N+](=O)[O-])c(NC3CCN(Cc4ccncc4)CC3)n2)c(C)c1 | - | MT-4 | IIIB | 0.01 µg/mL |
| CCCN(C)C(=O)Oc1nsnc1-c1c(Cl)ccc(N)c1Cl | RT-Y181C | MAGI | IIIB | 1.6 µM |